# Experimental data: patent US5756666A, “Peptides capable of inducing immune response to HIV” (priority 1993, dated 1998)
# Tested on: T2-B * 3501 cells
# Conditions: patient lymphocytes stimulated with 1 μM peptide; target T2-B*3501 cells, T2 cells as control; FIGS. 2-4
row,Compound,induction of CTL with specific cytotoxic activity
1,CC[C@H](C)[C@H](NC(=O)[C@@H]1CCCN1C(=O)[C@@H](N)CCC(=O)O)C(=O)N[C@H](C(=O)NCC(=O)N[C@@H](C)C(=O)N[C@@H](CCC(=O)O)C(=O)N[C@H](C(=O)N[C@@H](Cc1ccccc1)C(=O)N[C@@H](Cc1ccc(O)cc1)C(=O)O)[C@@H](C)O)C(C)C,effective for inducing CTLs capable of damaging the synthetic peptide-binding T2-B * 3501 cells
2,CC[C@H](C)[C@H](NC(=O)[C@H](C)NC(=O)[C@@H]1CCCN1C(=O)[C@@H](N)CO)C(=O)N[C@@H](Cc1ccccc1)C(=O)N[C@@H](CCC(N)=O)C(=O)N[C@@H](CO)C(=O)N[C@@H](CO)C(=O)N[C@@H](CCSC)C(=O)O,effective for inducing CTLs capable of damaging the synthetic peptide-binding T2-B * 3501 cells
